PubChem BioAssay AID624099 – ICCB-Longwood | 2012

- Assay: 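Knock-downs relieving repression by E2 of an HPV18 LCR luciferase reporter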 (primary screen)
- System: human C33A cervical carcinoma cells (HPV-negative) stably expressing BPV1 E2 and an HPV18 LCR luciferase reporter
- Reagent: siRNA pool against human genes, 40 nM
- Timing: 72 h
- Read-out: 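Per-well luciferase luminescence, z-scored on each plate against the plate mean and SD with control wells left out, then averaged across three replicate plates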
- Reading the numbers: mean z-score and z-score: higher = stronger reporter signal, weaker E2 silencing
- Active means: 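Hit if mean z-score reaches 2 and two or more of three replicate z-scores also reach 2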
The deposit covers about 21,000 reagents; shown is a random part of them. 497 of them (2.4%) count as active. 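Higher z means weaker E2 silencing; only reporter increases were scored, and knock-downs that hurt cell survival may mask genuine repressor factors.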

gene | mean z-score | z-score, replicate A | z-score, replicate B | z-score, replicate C | Call
IRF2BPL | 2.1 | 2 | 1.94 | 2.37 | inactive
COXFA4 | -1.02 | -1.24 | -1.01 | -0.82 | inactive
KIRREL3-AS3 | 0.13 | 0.09 | 0.04 | 0.26 | inactive
PCDHA8 | 0.08 | 0 | -0.06 | 0.28 | inactive
COL4A1 | 0 | -0.06 | 0.12 | -0.07 | inactive
HMOX2 | -1.65 | -1.76 | -1.7 | -1.49 | inactive
BAG6 | -0.18 | 0.2 | -0.11 | -0.63 | inactive
POLR2F | -3.13 | -3.18 | -3.15 | -3.06 | inactive
RTL8C | 0.29 | 0.26 | 0.43 | 0.17 | inactive
CHRNG | -0.63 | -0.73 | -0.51 | -0.67 | inactive
C20orf204 | -0.76 | -0.51 | -0.96 | -0.8 | inactive
EVI2B | -0.46 | -0.53 | -0.38 | -0.46 | inactive
VSTM2B-DT | -0.69 | -0.66 | -0.58 | -0.83 | inactive
HMGCS2 | -1.15 | -0.88 | -1.71 | -0.86 | inactive
RBMS2 | -1.13 | -1.45 | -1.02 | -0.91 | inactive

In a second layout: 6 of the entries above.
gene,mean z-score,"z-score, replicate A","z-score, replicate B","z-score, replicate C",Call
COXFA4,-1.02,-1.24,-1.01,-0.82,inactive
KIRREL3-AS3,0.13,0.09,0.04,0.26,inactive
PCDHA8,0.08,0,-0.06,0.28,inactive
COL4A1,0,-0.06,0.12,-0.07,inactive
HMOX2,-1.65,-1.76,-1.7,-1.49,inactive
BAG6,-0.18,0.2,-0.11,-0.63,inactive

Further records follow.
gene | mean z-score | z-score, replicate A | z-score, replicate B | z-score, replicate C | Call
LINC01904 | -1.55 | -1.52 | -1.45 | -1.7 | inactive
COX5B | 0.72 | 0.56 | 0.58 | 1.01 | inactive
NUPR1 | 3.89 | 3.97 | 3.5 | 4.2 | active
ZNF385C | -0.08 | -0.4 | 0.26 | -0.11 | inactive
KIRREL1 | -0.08 | -0.42 | -0.34 | 0.53 | inactive
ADAM17 | 1.58 | 1.61 | 1.65 | 1.49 | inactive
RNASE3 | -0.11 | -0.55 | -0.02 | 0.24 | inactive
LINC02610 | 0.61 | 0.67 | 0.52 | 0.65 | inactive
TIPE2 | -0.26 | -0.3 | -0.41 | -0.07 | inactive
SERPINB3 | -0.56 | -0.65 | -0.78 | -0.26 | inactive
SEC61B | -0.17 | -0.39 | 0.25 | -0.37 | inactive
NAV2 | 0.05 | 0.35 | 0.23 | -0.44 | inactive
PIM3 | -2.59 | -2.02 | -2.83 | -2.91 | inactive
LOC387992 (retired record) | 1.32 | 1.38 | 1.25 | 1.33 | inactive
LATS2 | 0.77 | 0.53 | 0.91 | 0.86 | inactive
OXA1L | 0.1 | 0.17 | 0.02 | 0.12 | inactive
STING1 | -0.15 | -0.1 | -0.27 | -0.08 | inactive
TFG | 2.63 | 2.41 | 2.51 | 2.98 | active
LURAP1L | -0.87 | -0.94 | -0.95 | -0.73 | inactive
CFDP1 | -1.19 | -1.1 | -1.31 | -1.16 | inactive
BRME1 | 0.05 | 0.06 | 0.24 | -0.14 | inactive
PRSS38 | -1.02 | -1.06 | -1.11 | -0.91 | inactive
SFMBT2 | -0.9 | -0.83 | -0.84 | -1.01 | inactive
WNK3 | 0.58 | 0.49 | 0.52 | 0.72 | inactive
